Measured values from several laboratories, pooled; numbers as filed in NIAID ChemDB.

Common to all: whole-cell or culture tests; species: Candida albicans

Neighbouring rows are from separate reports.

structure	setting	read by	endpoint	strain	value
Cc1c(N2CCC(CN)(C(F)(F)F)C2)c(F)cn2c(=O)c(C(=O)O)cc(C3CC3)c12	-	-	MIC	CCH442	>100 µg/mL
C[C@@H]1[C@H](O)[C@@H](C)/C=C/C=C/CC/C=C/C=C/C=C/C=C/C(O[C@H]2O[C@H](C)[C@@H](O)[C@H](N)[C@@H]2O)CC2O[C@](O)(CC(O)C(O)CCC(O)CC(O)CC(O)CC(=O)O[C@H]1C)CC(O)C2C(=O)O	-	broth dilution	MFC100	LM 42V	64 µg/mL
CCC(C)n1ncn(-c2ccc(N3CCN(c4ccc(OC[C@H]5CO[C@](Cn6cncn6)(c6ccc(Cl)cc6Cl)O5)cc4)CC3)cc2)c1=O	-	-	MIC	Isogenic isolate 4 MDR1 (25X)	0.03 µg/mL
CCCCCCCCCCCCCCCCCCCO	-	broth dilution	MLC	ATCC 10231	>200 µg/mL
Nc1nnc(-c2ncc([N+](=O)[O-])s2)s1	-	-	MIC	E-3	125 µg/mL
Cc1ccc2nc(F)c(C3C(C#N)=C(N)N(c4nc(-c5ccccc5)cs4)C4=C3C(=O)CCC4)cc2c1	-	broth dilution	MIC	MTCC 227	1000 µg/mL
C/C=C(/C)C(=O)OC1C(C)OC(=O)C(NC(=O)c2nccc(OC)c2O)COC(=O)C1Cc1ccccc1	-	-	MIC	IFO1061	0.78 µg/mL
COC(=O)C1=CC[C@@]23CC[C@@H]([C@@](C)(/C=C/C=C(\C)C(=O)O)OC2=O)[C@@]3(O)CC1	-	-	MIC	ATCC 10231	1.56 µg/mL
O=C(O)c1cc(O)c(O)c(O)c1	-	broth dilution	MIC	ATCC 10231	200 µg/mL
Cc1ccc2nc(F)c(C3C(C#N)=C(N)N(c4nc(-c5ccc(Cl)cc5)cs4)C4=C3C(=O)CCC4)cc2c1	-	broth dilution	MIC	MTCC 227	500 µg/mL
O=[N+]([O-])c1cc(CSc2nnnn2C2CCCCC2)cc([N+](=O)[O-])c1	48 h	broth dilution	EC80	ATCC 44859	>500 µM
Cc1ccc(C(C)C)cc1O	-	broth dilution	MIC	-	>45260 µg/mL
CCCCCCCCCCCCCCCC(=O)N[C@H]1C[C@@H](O)[C@@H](O)NC(=O)[C@@H]2[C@@H](O)[C@@H](C)CN2C(=O)[C@H]([C@@H](C)O)NC(=O)[C@H]([C@H](O)[C@@H](O)c2ccc(O)cc2)NC(=O)[C@@H]2C[C@@H](O)CN2C(=O)[C@H]([C@@H](C)O)NC1=O	-	-	MFC	-	0.5 µg/mL
CCC(C)c1cc2c(Cl)c3c(c(O)c2c(=O)n1N)-c1c(O)c2c(c4c1[C@@H](C3)OCO4)O[C@@H]1C(OC)=CC=C(O)[C@@H]1C2=O	-	-	MIC	6 strains	~38 µg/mL
O=[N+]([O-])c1cc(CSc2cccc[n+]2[O-])cc([N+](=O)[O-])c1	24 h	broth dilution	EC80	ATCC 44859	>500 µM
N#CC1=C(N)N(c2nc(-c3ccc(Cl)cc3)cs2)C2=C(C(=O)CCC2)C1c1cc2cc(Cl)ccc2nc1F	-	broth dilution	MIC	MTCC 227	500 µg/mL
Clc1ccc(COC(Cn2ccnc2)c2ccc(Cl)cc2Cl)c(Cl)c1	-	-	MFC	-	32 µg/mL
Cc1c(N2CCC[C@@H](N)C2)c(F)cn2c(=O)c(C(=O)O)cc(C3CC3)c12	-	-	MIC	CCH442	>100 µg/mL
C=C(Cl)/C=C/[C@H](O)CC(=C)C[C@H]1OC2[C@@H](O)[C@]3(O)C[C@@H](O)[C@H](C)[C@H](CCC/C=C\[C@@H]4C[C@@H](O)C[C@]5(C[C@H](OC)CC(CC(=O)[C@@H](C)[C@H](OC(C)=O)[C@@H](C)C(=C)C[C@@H]6C[C@@](C)(O)C[C@]7(C[C@H](OC(C)=O)CC(CC(=O)O[C@@H]([C@@H]1O)[C@H]2C)O7)O6)O5)O4)O3	-	-	MIC	ATCC 14053	3.12 µg/mL
O=C1CCC(c2ccccc2)C(=O)N1CCCCN1CCN(c2ccccc2O)CC1	-	-	MIC	DSM 1386	>100 µM
C/C=C(/C)C(=O)O[C@@H]1c2cc(C(C)=O)c(OC)cc2O[C@@H]1C(C)(C)O	-	-	MIC	ATCC 10231	>400 µg/mL
CCC(C)CC(C)CCCCCCCCC(=O)N[C@H]1C[C@@H](O)[C@H](NCCN)NC(=O)[C@@H]2[C@@H](O)CCN2C(=O)[C@H]([C@H](O)CCN)NC(=O)[C@H]([C@H](O)[C@@H](O)c2ccc(O)cc2)NC(=O)[C@@H]2C[C@@H](O)CN2C(=O)[C@H]([C@@H](C)O)NC1=O	-	-	Geometric mean MFC	-	1.31 µg/mL
Nc1[nH]c(=O)ncc1F	-	-	MFC	-	128 µg/mL
N#CC1=C(N)N(c2nc(-c3ccc(O)cc3)cs2)C2=C(C(=O)CCC2)C1c1cc2ccccc2nc1F	-	broth dilution	MIC	MTCC 227	500 µg/mL
COc1cc(C=O)ccc1O	-	broth dilution	MIC	-	130 µg/mL
C[C@@H]1[C@H](O)[C@@H](C)/C=C/C=C/CC/C=C/C=C/C=C/C=C/C(O[C@H]2O[C@H](C)[C@@H](O)[C@H](N)[C@@H]2O)CC2O[C@](O)(CC(O)C(O)CCC(O)CC(O)CC(O)CC(=O)O[C@H]1C)CC(O)C2C(=O)O	-	broth dilution / turbidity	MIC	ATCC 2091	12.5 µg/mL
CCOC(=O)C1=C(N)N(c2nc(-c3ccccc3)cs2)C2=C(C(=O)CCC2)C1c1cc2ccccc2nc1F	-	broth dilution	MIC	MTCC 227	500 µg/mL
CC1=C(N2CCO[C@H](CN)C2)C(F)=CN2C(=O)C(C(=O)O)=CC(C3CC3)C12	-	-	MIC	CCH442	>100 µg/mL
NC(=O)c1ncn([C@@H]2O[C@H](CO)[C@@H](O)[C@H]2O)c1Br	-	-	MIC	-	0.15 µM
CO[C@H]1C[C@H](O[C@H]2CC[C@@]3(C)C(=CC[C@H]4C5=CC(=O)[C@@H]6[C@@H](C)OC(=O)[C@]56CC[C@@H]43)C2)O[C@H](C)[C@H]1O[C@H]1C[C@H](OC)[C@H](O[C@@H]2C[C@@H](OC)[C@@H](O[C@@H]3O[C@H](CO)[C@@H](O)[C@H](O)[C@H]3O)[C@H](C)O2)[C@@H](C)O1	-	broth dilution / turbidity	MIC	ATCC 2091	>100 µg/mL
O=C(O)c1cccc(-n2nnnc2SCc2cc([N+](=O)[O-])cc([N+](=O)[O-])c2)c1	48 h	broth dilution	EC80	ATCC 44859	>500 µM
CCOC(=O)C1=C(N)N(c2nc(-c3ccccc3O)cs2)C2=C(C(=O)CCC2)C1c1cc2cc(C)ccc2nc1F	-	broth dilution	MIC	MTCC 227	250 µg/mL
CCCCCC	-	-	MIC	ATCC 10231	8000 µg/mL
CO[C@H]1C[C@H](O[C@H]2CC[C@@]3(C)C(=CC[C@@H]4[C@@H]3CC[C@]35C(=O)O[C@H](C)[C@H]3C(=O)C[C@]45O)C2)O[C@H](C)[C@H]1O[C@H]1C[C@H](OC)[C@H](O[C@@H]2C[C@@H](OC)[C@@H](O[C@@H]3O[C@H](CO)[C@@H](O)[C@H](O)[C@H]3O)[C@H](C)O2)[C@@H](C)O1	-	broth dilution / turbidity	MIC	ATCC 2091	100 µg/mL
O=C(/C=C/c1ccc(SCCCCCCN2CCCCC2)cc1)c1ccccc1	-	-	MIC	PCM 1409 PZH	<246 µM
CCCCCCCCO[C@]1([C@@H]2CSC(=O)N2)C[C@H]2C[C@@H](CC[C@H](C)/C=C\CC/C(C)=C\C(=O)O2)O1	-	-	MIC	ATCC 10231	14.7 µM
CC1=C(N2CC[C@H](CNCCF)C2)C(F)=CN2C(=O)C(C(=O)O)=CC(C3CC3)C12	-	-	MIC	CCH442	>100 µg/mL
O=C1CCC(c2ccccc2)C(=O)N1CCCCN1CCN(Cc2ccccc2)CC1	-	-	MIC	DSM 1386	>100 µM
O=[N+]([O-])c1cc(C[Se]c2nnnn2Cc2ccccc2)cc([N+](=O)[O-])c1	24 h	broth dilution	EC80	ATCC 44859	>500 µM
CCC(C)(C)c1ccc(CC(C)CN2C[C@@H](C)O[C@@H](C)C2)cc1	-	-	MIC	-	4 µg/mL
O=C(/C=C/c1ccc(SCCCCCN2CCCCC2)cc1)c1ccccc1	-	-	MIC	PCM 1409 PZH	127 µM
Cc1c(N2CCC(C)(N)C2)c(F)cn2c(=O)c(C(=O)O)cc(C3CC3)c12	-	-	MIC	CCH442	>100 µg/mL
CO[C@H]1C[C@H](O[C@H]2CC[C@@]3(C)C(=CC[C@H]4C5=CC(=O)[C@@H]6[C@@H](C)OC(=O)[C@]56CC[C@@H]43)C2)O[C@H](C)[C@H]1O	-	broth dilution / turbidity	MIC	ATCC 2091	>100 µg/mL
C[C@@H]1O[C@@H](Oc2c(-c3ccc(O)c(O)c3)oc3cc(O)cc(O)c3c2=O)[C@H](O)[C@H](O)[C@H]1O	-	broth dilution	MLC	ATCC 10231	200 µg/mL
CCCCC[C@@H](O)[C@H]1C(=O)O[C@H](C)[C@@H](O)/C=C/C=C/C=C/C=C/C=C(\C)[C@@H](O)C[C@H](O)C[C@H](O)C[C@H](O)C[C@H](O)C[C@H](O)C[C@@H]1O	-	-	MIC	IPA	1.2 µg/mL
CO[C@H]1C[C@H](O[C@H]2CC[C@@]3(C)C(=CC[C@@H]4[C@@H]3CC[C@]35C(=O)O[C@H](C)[C@H]3C(=O)C[C@]45O)C2)O[C@H](C)[C@H]1O[C@H]1C[C@H](OC)[C@H](O[C@H]2C[C@H](OC)[C@H](O[C@H]3C[C@H](OC)[C@H](O[C@@H]4C[C@@H](OC)[C@@H](OC5O[C@H](CO)[C@@H](O)[C@H](O)[C@H]5O)[C@H](C)O4)[C@@H](C)O3)[C@@H](C)O2)[C@@H](C)O1	-	broth dilution / turbidity	MIC	ATCC 2091	50 µg/mL
O=C1CCC(c2ccccc2)C(=O)N1CCCN1CCN(c2ccccc2O)CC1	-	-	MIC	DSM 1386	>100 µM
CCc1c(N2CCC(N)C2)c(F)cn2c(=O)c(C(=O)O)cc(C3CC3)c12	-	-	MIC	CCH442	50 µg/mL
CSc1ccc(C(F)(F)F)cc1-c1cc2nc(N)nc(N)c2cc1C	-	broth dilution	MIC	ATCC 36082	32 µg/mL
Cc1c(N2CC[C@@H](CO)C2)c(F)cn2c(=O)c(C(=O)O)cc(C3CC3)c12	-	-	MIC	CCH442	6.2 µg/mL
COc1ccc(C(C)=O)cc1C(=O)CC(C)C	-	-	MIC	ATCC 10231	>400 µg/mL
O=C1CCC(c2ccccc2)C(=O)N1CCCCN1CCN(c2ccccc2)CC1	-	-	MIC	DSM 1386	>100 µM
C[C@@H]1CCC2(C(=O)O)CC[C@]3(C)C(=CCC4C5(C)CCC(O)[C@@](C)(CO)C5CCC43C)C2[C@]1(C)O	-	-	MIC	IFO1061	50 µg/mL
C[C@@H]1C=C2C3CCC4[C@@]5(C)CC[C@@H](O)C(C)(C)C5CC[C@@]4(C)[C@]3(C)CC[C@@]2(C(=O)O)CC1	-	broth dilution	MIC	ATCC 10231	>200 µg/mL
O=C(O[C@@H]1O[C@@H]2COC(=O)c3cc(O)c(O)c(O)c3-c3c(cc(O)c(O)c3O)C(=O)O[C@H]([C@H]1O)[C@@H]2O)c1cc(O)c(O)c(O)c1	-	visual reading	MIC	ATCC 10231	62.5 µg/mL
CNCC1CCCN(c2c(F)cn3c(=O)c(C(=O)O)cc(C4CC4)c3c2C)C1.Cl	-	-	MIC	CCH442	>100 µg/mL
CC1=CC2C(N)=NC(N)=NC2C=C1c1ccc2c(N)nc(N)nc2c1	-	broth dilution	MIC	ATCC 36082	>64 µg/mL
Cc1ccccc1O	-	broth dilution	MIC	-	1050 µg/mL
CCC(C)n1ncn(-c2ccc(N3CCN(c4ccc(OC[C@H]5CO[C@](Cn6cncn6)(c6ccc(Cl)cc6Cl)O5)cc4)CC3)cc2)c1=O	-	-	MFC	-	32 µg/mL
Nc1nnc(-c2cnc([N+](=O)[O-])s2)s1	-	-	MIC	E-3	125 µg/mL
COc1cc(C)ccc1O	-	broth dilution	MIC	-	1300 µg/mL
Cc1c(F)c(N2CCC(N)C2)cc2c(C3CC3)cc(C(=O)O)c(=O)n12	-	-	MIC	CCH442	>100 µg/mL
O=[N+]([O-])c1cc(C[Se]c2nnnn2C2CCCCC2)cc([N+](=O)[O-])c1	48 h	broth dilution	EC80	ATCC 44859	>500 µM

6 of the rows above, restated:

structure | setting | read by | endpoint | strain | value
CCCCCCCCCCCCCCCCCCCO | - | broth dilution | MLC | ATCC 10231 | >200 µg/mL
CCCCCCCCCCCCCCCC(=O)N[C@H]1C[C@@H](O)[C@@H](O)NC(=O)[C@@H]2[C@@H](O)[C@@H](C)CN2C(=O)[C@H]([C@@H](C)O)NC(=O)[C@H]([C@H](O)[C@@H](O)c2ccc(O)cc2)NC(=O)[C@@H]2C[C@@H](O)CN2C(=O)[C@H]([C@@H](C)O)NC1=O | - | - | MFC | - | 0.5 µg/mL
Cc1c(F)c(N2CCC(N)C2)cc2c(C3CC3)cc(C(=O)O)c(=O)n12 | - | - | MIC | CCH442 | >100 µg/mL
Cc1c(N2CCC(CN)(C(F)(F)F)C2)c(F)cn2c(=O)c(C(=O)O)cc(C3CC3)c12 | - | - | MIC | CCH442 | >100 µg/mL
CNCC1CCCN(c2c(F)cn3c(=O)c(C(=O)O)cc(C4CC4)c3c2C)C1.Cl | - | - | MIC | CCH442 | >100 µg/mL
O=C(O)c1cccc(-n2nnnc2SCc2cc([N+](=O)[O-])cc([N+](=O)[O-])c2)c1 | 48 h | broth dilution | EC80 | ATCC 44859 | >500 µM

Blank or dashed fields: not listed here. MIC50, MIC90 and the like: level of inhibition, or share of isolates inhibited. ECn is the concentration giving n% inhibition of infection, replication or growth.